Results of unrelated studies side by side (data: NIAID ChemDB).

Shared fields: tests on isolated targets; species: HIV-1; protein: Protease

Neighbouring rows are from separate reports. An empty or dashed field is not shown. ICn: concentration for n% inhibition. Percent inhibition refers to the dose given; in toxicity tests it is the harm to the cells. Fold resistance: result on the changed form divided by that on wild type.

structure | changes | read by | conditions | endpoint | dose | result
CC(C)(C)[C@H](NC(=O)c1nc2ccccc2[nH]1)C(=O)N[C@@H](Cc1ccccc1)[C@@H](O)[C@H](CO)[C@H](Cc1ccccc1)NC(=O)[C@@H](NC(=O)c1nc2ccccc2[nH]1)C(C)(C)C | - | - | - | Ki | - | >12.5 µM
O[C@@H]1[C@@H](O)[C@@H](Cc2ccccc2)N(Cc2ccccc2)C(=S)N(Cc2ccccc2)[C@@H]1Cc1ccccc1 | - | - | - | Ki | - | 0.0031 µM
CC(C)[C@H](NC(=O)OCc1ccccc1)C(=O)NC(Cc1ccccc1)C(O)C(F)(F)C(Cc1ccccc1)NC(=O)[C@@H](NC(=O)OCc1ccccc1)C(C)C | - | fluorescence | - | inhibition | 0.001 µM | 53%
CC(C)CN(C[C@@H](O)[C@H](Cc1ccccc1)NC(=O)[C@H](CC(N)=O)NC(=O)c1ccc2ccccc2n1)C(=O)NC(C)(C)C | PR-A71T | HPLC | - | fold resistance | - | 1
COC(=O)c1ccc(CN2[C@H](COc3ccccc3)[C@H](O)[C@@H](O)[C@@H](COc3ccccc3)N(Cc3ccc(C(=O)OC)cc3)S2(=O)=O)cc1 | PR-V82A | - | - | fold resistance | - | 1.1
CC(C)[C@H](NC(=O)N(C)Cc1ccccn1)C(=O)N[C@@H](Cc1ccccc1)[C@H](O)[C@@H](O)[C@H](Cc1ccccc1)NC(=O)[C@@H](NC(=O)N(C)Cc1ccccn1)C(C)C | - | fluorescence | - | inhibition | 0.001 µM | 68%
CC(C)(C)OC(=O)N[C@@H](Cc1ccccc1)[C@H](O)CNC[C@@H](O)[C@H](Cc1ccc(OCC(=O)N2CCOCC2)cc1)NC(=O)OC(C)(C)C | PR-A71T V82A | HPLC | - | fold resistance | - | 33.5
CC(C)(C)OC(=O)NC(Cc1ccccc1)C(O)C(Cc1ccccc1)NC(=O)[C@H](CC(N)=O)NC(=O)OCc1ccccc1 | - | fluorescence | - | IC50 | - | <0.1 µM
CC(C)(C)OC(=O)N[C@@H](Cc1ccccc1)[C@H](O)CNC[C@@H](O)[C@H](Cc1ccccc1)NC(=O)C(C)(O)c1ccccn1 | - | HPLC | pH 5.5 | IC50 | - | <10 µM
COC(=O)[C@H](C)NC(=O)[C@@H](NC(=O)[C@H](Cc1ccccc1)CC(O)C[C@H](Cc1ccccc1)C(=O)N[C@H](C(=O)N[C@H](C(=O)OC)C(C)C)C(C)C)C(C)C | - | - | - | Ki | - | 0.013 µM
O=S1C[C@](CO)(Cc2ccccc2)C(O)[C@@](CO)(Cc2ccccc2)C1 | - | - | - | Ki | - | 7 µM
CC(C)[C@H](NC(=O)N(C)Cc1ccccn1)C(=O)N[C@@H](Cc1ccccc1)[C@H](O)[C@H](O)[C@H](Cc1ccccc1)NC(=O)[C@@H](NC(=O)N(C)Cc1ccccn1)C(C)C | PR-R8Q | fluorescence | - | fold resistance | - | 32.1
C/C(=N\O)c1cccc(CN2[C@H](COc3ccccc3)[C@H](O)[C@@H](O)[C@@H](COc3ccccc3)N(Cc3cccc(/C(C)=N/O)c3)S2(=O)=O)c1 | PR-I84V | - | - | fold resistance | - | 13.2
Cc1cc(SC2=C(O)C[C@@](CCc3ccc(N)cc3)(C(C)C)OC2=O)c(C(C)(C)C)cc1CO | PR-V32I I84V | HPLC / absorbance | - | fold resistance | - | 14
CC(C)(C)[C@H](N)C(=O)N[C@@H](Cc1ccccc1)[C@@H](O)[C@H](CO)[C@H](Cc1ccccc1)NC(=O)[C@@H](N)C(C)(C)C | - | - | - | Ki | - | >12.5 µM
CC(C)[C@H](N)C(=O)N[C@@H](Cc1ccccc1)[C@H](O)CNC[C@@H](O)[C@H](Cc1ccccc1)NC(=O)[C@@H](N)C(C)C | - | HPLC | pH 5.5 | IC50 | - | >10 µM
Cc1cccc(C)c1OCC(=O)N[C@@H](Cc1ccccc1)[C@H](O)CN1CC[C@@H](Sc2ccncc2)C[C@H]1C(=O)NC(C)(C)C | PR-I84V | fluorescence | - | fold resistance | - | 14
CC(C)[C@H](NS(=O)(=O)N(C)Cc1ccccn1)C(=O)N[C@@H](Cc1ccccc1)[C@H](O)[C@H](O)[C@H](Cc1ccccc1)NC(=O)[C@@H](NS(=O)(=O)N(C)Cc1ccccn1)C(C)C | - | fluorescence | - | IC50 | - | <0.1 µM
CC(C)(C)NC(=O)c1ccccc1C[C@@H](O)[C@H](CSc1ccccc1)NC(=O)[C@H](CC(N)=O)NC(=O)Oc1ccc2ccccc2n1 | - | - | - | Ki | - | >12.5 µM
CC(=O)N[C@@H](CO)C(=O)N[C@@H](CC(C)C)C(=O)N[C@@H](CC(N)=O)C(=O)N[C@@H](Cc1ccccc1)B(O)O | PR-M46I V82F I84V L90M | HPLC | - | fold resistance | - | 18.75
CO[C@@H](Cc1ccccc1)C(F)(F)C(=O)[C@H](Cc1ccccc1)NC(=O)[C@@H](NC(=O)OCc1ccccc1)C(C)C | - | fluorescence | - | inhibition | 0.01 µM | 41%
CC(C)(C)NC(=O)c1ccccc1C[C@@H](O)[C@H](Cc1ccccc1)NC(=O)[C@H](CC(N)=O)NC(=O)Oc1ccc2ccccc2n1 | - | - | - | Ki | - | >12.5 µM
CC(C)(C)OC(=O)N[C@@H](Cc1ccccc1)[C@H](O)CNC[C@@H](O)[C@H](Cc1ccccc1)NC(=O)OC(C)(C)CCCN | - | HPLC | pH 5.5 | IC50 | - | 10 µM
CNC(=O)c1cccc(CN2[C@H](COc3ccccc3)[C@H](O)[C@@H](O)[C@@H](COc3ccccc3)N(Cc3cccc(C(=O)NC)c3)S2(=O)=O)c1 | PR-I84V | - | - | fold resistance | - | 14.4
O=C1N(Cc2ccccc2)[C@H](Cc2ccccc2)[C@H](O)CN(Cc2ccccc2)N1Cc1ccccc1 | - | - | - | Ki | - | 0.0087 µM
O=S1(=O)N(Cc2ccc(CO)cc2)[C@H](COc2ccccc2)[C@H](O)[C@@H](O)[C@@H](COc2ccccc2)N1Cc1ccc(CO)cc1 | PR-V82A | - | - | fold resistance | - | 0.806
CC(C)CN(C[C@@H](O)[C@H](Cc1ccccc1)NC(=O)[C@@H](NC(=O)CNCc1cccc(F)c1)C(C)(C)C)S(=O)(=O)c1ccc(N)cc1 | - | fluorescence | - | Ki | - | 0.000021 µM
CC(C)[C@H](NC(=O)OCc1ccccc1)C(=O)N[C@@H](Cc1ccccc1)[C@H](O)CNC[C@@H](O)[C@H](Cc1ccccc1)NC(=O)[C@H](CC(N)=O)NC(=O)OC(C)(C)C | - | HPLC | pH 5.5 | IC50 | - | 10 µM
O=S1(=O)N(Cc2cccc(-c3cccs3)c2)[C@H](COc2ccccc2)[C@H](O)[C@@H](O)[C@@H](COc2ccccc2)N1Cc1cccc(-c2cccs2)c1 | PR-V82A | - | - | fold resistance | - | 17.7

3 of the rows above, restated:

structure	changes	read by	conditions	endpoint	dose	result
O=S1C[C@](CO)(Cc2ccccc2)C(O)[C@@](CO)(Cc2ccccc2)C1	-	-	-	Ki	-	7 µM
CC(C)[C@H](NS(=O)(=O)N(C)Cc1ccccn1)C(=O)N[C@@H](Cc1ccccc1)[C@H](O)[C@H](O)[C@H](Cc1ccccc1)NC(=O)[C@@H](NS(=O)(=O)N(C)Cc1ccccn1)C(C)C	-	fluorescence	-	IC50	-	<0.1 µM
CC(C)CN(C[C@@H](O)[C@H](Cc1ccccc1)NC(=O)[C@H](CC(N)=O)NC(=O)c1ccc2ccccc2n1)C(=O)NC(C)(C)C	PR-A71T	HPLC	-	fold resistance	-	1